Anti-infective test results gathered from many reports (values: NIAID ChemDB through PubChem).

All rows: whole-cell or culture tests

Percent inhibition refers to the dose given; in toxicity tests it is the harm to the cells. An empty or dashed field is not shown. Rows are shuffled and stem from different studies. A number after MIC or MFC names an inhibition level or a share of isolates.

SMILES,organism,conditions,read by,changes,dose,strain,endpoint,value
CCCCCCNC(=O)Nc1ccc(S(=O)(=O)Nc2cc(C)on2)cc1,Mycobacterium kansasii,7 d,broth dilution / absorbance,,,6509/96 clinical isolate,MIC100,125 µM
O=C(Nc1ccc(Cl)c(Cl)c1)c1cc(Cl)ccc1OP(=O)(OCc1ccccc1)OCc1ccccc1,Mycobacterium kansasii,14 d,,,,My 235/80,MIC,62.5 µM
CN(C)c1ccc(O)c2c1C[C@H]1C[C@H]3[C@H](N(C)C)C(=O)C(C(N)=O)=C(O)[C@@]3(O)C(=O)C1=C2O,Mycobacterium marinum,,,,,37 clinical isolates,MIC90,2 µg/mL
C(=N\Nc1nncs1)/c1cn(CC2CCCCC2)c2ccccc12,Mycobacterium bovis BCG,24 h,broth dilution,,,1173P2,MIC100,15.63 µg/mL
COc1cc(Cc2cnc(N)nc2N)cc(OC)c1Br,Mycobacterium ulcerans,,,,,Isolate 5155,MBC,16 µg/mL
CO[C@@H]1C[C@@H](C[C@H]2CC[C@H](C)[C@H]([C@@H](C)C(=O)O)O2)O[C@]2(O[C@](C)([C@H]3CC[C@@](C)([C@@H]4O[C@@H]([C@H]5O[C@@](O)(CO)[C@H](C)C[C@@H]5C)C[C@@H]4C)O3)C[C@H]2C)[C@@H]1C,Mycobacterium marinum,,resazurin,,,ATCC BAA-535,MIC,2.5 µg/mL
Nc1ccc(S(=O)(=O)c2ccc(N)cc2)cc1,Mycobacterium ulcerans,,,,,Isolate 5155,MIC,2 µg/mL
NNC(=O)c1ccncc1,Mycobacterium kansasii,14 d,broth dilution / absorbance,,,235/80,MIC100,>250 µM
O=C1c2cc(Cl)ccc2OP(=O)(c2ccccc2)N1c1ccc(Cl)c(Cl)c1,Mycobacterium kansasii,7 d,,,,My 235/80,MIC,8 µM
CC[C@@H](C(=O)[C@@H](C)[C@@H](O)[C@H](C)[C@@H]1O[C@@H]([C@@H](CC)C(=O)O)CC[C@@H]1C)[C@H]1O[C@@]2(C=C[C@@H](O)[C@@]3(CC[C@@](C)([C@H]4CC[C@](O)(CC)[C@H](C)O4)O3)O2)[C@H](C)C[C@@H]1C,Mycobacterium aurum,,resazurin,T532 insertion,,,MIC,0.08 µg/mL
O=C1c2ccccc2OP(=O)(c2ccccc2)N1c1ccccc1,Mycobacterium kansasii,21 d,,,,My 235/80,MIC,500 µM
C[C@@H]1CN(c2c(F)c(N)c3c(=O)c(C(=O)O)cn(C4CC4)c3c2F)C[C@H](C)N1,Mycobacterium avium complex,,broth dilution,,,11,MIC,≤0.06 µg/mL
CO[C@H]1/C=C/O[C@@]2(C)Oc3c(C)c(O)c4c(O)c(c5c(c4c3C2=O)NC2(CCN(CC(C)C)CC2)N=5)=NC(=O)/C(C)=C\C=C\[C@H](C)[C@H](O)[C@@H](C)[C@@H](O)[C@@H](C)[C@H](OC(C)=O)[C@@H]1C,Mycobacterium avium intracellulare,,,,,10 isolates,MIC50,0.125 µg/mL
NNC(=S)N/N=C/c1cn(CC2CC2)c2ccccc12,Mycobacterium bovis BCG,24 h,broth dilution,,,1173P2,MIC100,>500 µg/mL
CCCNC(=O)Nc1ccc(S(=O)(=O)Nc2cc(C)on2)cc1,Mycobacterium kansasii,21 d,broth dilution / absorbance,,,6509/96 clinical isolate,MIC100,500 µM
C[C@H]1c2cccc(O)c2C(O)=C2C(=O)[C@]3(O)C(O)=C(C(N)=O)C(=O)[C@@H](N(C)C)[C@@H]3[C@@H](O)[C@@H]21,Mycobacterium smegmatis,,,,,A24185,MIC,0.06 µg/mL
Cc1cc(NS(=O)(=O)c2ccc(NC(=O)N3CCC3)cc2)no1,Mycobacterium kansasii,14 d,broth dilution / absorbance,,,6509/96 clinical isolate,MIC100,16 µM
C=C1[C@@H](O)[C@@H]2OC3(CCC(/C=C/[C@@H](C)[C@@H]4CC(C)=CC5(O[C@H](C[C@@](C)(O)C(=O)O)CC[C@H]5O)O4)O3)CC[C@H]2O[C@@H]1[C@@H](O)C[C@H](C)[C@H]1OC2(CCCCO2)CC[C@H]1C,Mycobacterium bovis,,,,6 µM,BCG,inhibition,0%
NC[C@H]1O[C@H](O[C@H]2[C@H](O)[C@@H](O[C@H]3O[C@H](CO)[C@@H](O)[C@H](N)[C@H]3O)[C@H](N)C[C@@H]2N)[C@H](O)[C@@H](O)[C@@H]1O,Mycobacterium avium complex,,,,,Isolate C-39,MIC,100 µg/mL
CCCCNC(=O)Nc1ccc(S(=O)(=O)Nc2cc(C)on2)cc1,Mycobacterium kansasii,21 d,broth dilution / absorbance,,,6509/96 clinical isolate,MIC100,500 µM
CO[C@H]1/C=C/O[C@@]2(C)Oc3c(C)c(O)c4c(O)c(c5c(c4c3C2=O)NC2(CCN(CC(C)C)CC2)N=5)=NC(=O)/C(C)=C\C=C\[C@H](C)[C@H](O)[C@@H](C)[C@@H](O)[C@@H](C)[C@H](OC(C)=O)[C@@H]1C,Mycobacterium avium,,,,,3337-4,MBC,32 µg/mL
C(=N\Nc1nncs1)/c1cn(CC2CC2)c2ccccc12,Mycobacterium bovis BCG,48 h,broth dilution,,,1173P2,MIC100,7.81 µg/mL
O=C(Nc1ccc(Br)cc1)c1cc(Cl)ccc1OP(=O)(c1ccccc1)c1ccccc1,Mycobacterium kansasii,21 d,,,,My 235/80,MIC,8 µM
CN(C)c1cc(NC(=O)CNC(C)(C)C)c(O)c2c1C[C@H]1C[C@H]3[C@H](N(C)C)C(=O)C(C(N)=O)=C(O)[C@@]3(O)C(=O)C1=C2O,Mycobacterium bolletii,,broth dilution,,,,MIC,0.25 µg/mL
CC[C@H]1OC(=O)[C@H](C)[C@@H](O[C@H]2C[C@@](C)(OC)[C@@H](O)[C@H](C)O2)[C@H](C)[C@@H](O[C@@H]2O[C@H](C)C[C@H](N(C)C)[C@H]2O)[C@](C)(OC)C[C@@H](C)C(=O)[C@H](C)[C@@H](O)[C@]1(C)O,Mycobacterium marinum,,,,,37 clinical isolates,MIC50,0.5 µg/mL
O=C(Nc1ccc(Cl)c(Cl)c1)c1cc(Cl)ccc1OP(=O)(Oc1ccccc1)Oc1ccccc1,Mycobacterium kansasii,14 d,,,,My 235/80,MIC,8 µM
CCCCCCn1cc(/C=N/Nc2nncs2)c2ccccc21,Mycobacterium bovis BCG,48 h,broth dilution,,,1173P2,MIC100,15.63 µg/mL
CC[C@H]1OC(=O)[C@H](C)[C@@H](O[C@H]2C[C@@](C)(OC)[C@@H](O)[C@H](C)O2)[C@H](C)[C@@H](O[C@@H]2O[C@H](C)C[C@H](N(C)C)[C@H]2O)[C@](C)(OC)C[C@@H](C)C(=O)[C@H](C)[C@@H](O)[C@]1(C)O,Mycobacterium massiliense,,broth dilution,,,V184,MIC,0.5 µg/mL
C[C@H]1COc2c(N3CCN(C)CC3)c(F)cc3c(=O)c(C(=O)O)cn1c23,Mycobacterium marinum,,,,,37 clinical isolates,MIC90,4 µg/mL